A mixed list of measured activities; the numbers were collected in NIAID ChemDB.

Common to all: growth or infection tests; organism: HIV-1; endpoint: EC50

Blank or dashed fields: not listed here. ECn: concentration that inhibits the pathogen or its effect by n%. Conditions beyond the fields shown may differ between rows.

structure,strain,changes,cells,value
CC(C)(C)C(=O)OCCSP(=O)(OC[C@@H]1C=C[C@H](n2cnc3c(N)ncnc32)O1)SCCOC(=O)C(C)(C)C,,,CEM + CEM TK-,0.0077 µM
CC/C(=N\O)c1cccc(CN2C(=O)N(Cc3cccc(/C(CC)=N/O)c3)[C@H](Cc3ccccc3)[C@H](O)[C@@H](O)[C@H]2Cc2ccccc2)c1,RF,,MT-2,<0.007 µM
Cc1cn([C@H]2C=C[C@@H](CO)O2)c(=O)[nH]c1=O,,,CEM + CEM/0,0.37 µM
[N-]=[N+]=N[C@H]1[C@@H](O)[C@H](n2cnc3c(N)ncnc32)O[C@@H]1CO,,,PBMC,13.9 µM
C[C@H](CO)[C@H]1CC[C@@]2(C)C3C=C[C@@]45OC(=O)[C@]3(CC[C@]12C)C4CCC(=O)C5(C)C,IIIB,,C8166,17.5 µg/mL
NCCCCN(Cc1nc2ccccc2[nH]1)C1CCCc2cccnc21,NL4-3,,PBMC,0.01 µM
O=C1N(Cc2cccc(-c3ncc[nH]3)c2)[C@H](Cc2ccccc2)[C@H](O)[C@@H](O)[C@@H](Cc2ccccc2)N1Cc1cccc(-c2ncc[nH]2)c1,RF,,MT-2,<0.234 µM
Cc1ccc(S(=O)(=O)CCn2c(=O)c(C)cn(C3CC(N=[N+]=[N-])C(CO)O3)c2=O)cc1,NL4-3,,,0.14 µM
C[C@H](C/C=C/C(C)(C)O)[C@H]1CC[C@@]2(C)C3C=C[C@@]45O[C@H](O)[C@]3(CC[C@]12C)C4CC[C@H](O)C5(C)C,IIIB,,C8166,11.1 µg/mL
CC(C)c1cc(=O)oc2c3c(c4c(c12)OC(C)(C)C=C4)O[C@@H](C)[C@H](C)[C@@H]3S,RF,,CEM + CEM-SS,8.4 µM
Cc1nnc(C(C)C)n1C1C[C@H]2CC[C@@H](C1)N2CC[C@H](NC(=O)C1CCC(F)(F)CC1)c1ccccc1,X4,,,>1000 nM
Cc1cn(C2CC(N=[N+]=[N-])C(CO)O2)c(=O)n(/C=C/C(=O)/C=C(\O)c2nnnn2Cc2ccc(F)cc2)c1=O,NL4-3,,,0.24 µM
Cc1cn([C@H]2C=C[C@@H](CO)O2)c(=O)[nH]c1=O,,,CEM + CEM-SS,0.04 µM
[N-]=[N+]=N[C@H]1[C@@H](O)[C@H](n2ccc(N)nc2=O)O[C@@H]1CO,,,PBMC,91 µM
Cc1cn([C@H]2C[C@H](N=[N+]=[N-])[C@@H](CO)O2)c(=O)[nH]c1=O,,,PBMC,0.02 µg/mL
Cc1cn([C@H]2C[C@H](N=[N+]=[N-])[C@@H](CO)O2)c(=O)[nH]c1=O,NL4-3,RT-D67N K70R T215Y K219Q,CEM + CEM-SS,0.98 µM
Cc1c(O)cccc1C(=O)N[C@@H](CSc1ccccc1)[C@H](O)CN1C[C@H]2CCCC[C@H]2C[C@H]1C(=O)NC(C)(C)C,RF,,MT-2,0.005 µM
NC(=O)c1ccn2c1CS[C@@H]2c1cccnc1,DAS,,Monocytes/macrophages,50 µM
Cc1cccc2c1OP(=O)(OC[C@H]1C[C@H](n3cc(C)c(=O)[nH]c3=O)C[C@@H]1O)OC2,,,CEM + CEM/0,25 µM
CC(C)(C)NC(=O)c1ccccc1SC[C@H](O)[C@H](Cc1ccccc1)NC(=O)[C@H](CC(N)=O)NC(=O)c1ccc2ccccc2n1,,,CEM,4.99 µg/mL
Cc1cn([C@@H]2O[C@@H]3[C@H](O)CO[C@]3(CO)[C@H]2O)c(=O)[nH]c1=O,,,MT-4,>100 µM
C=C(C)/C=C/C[C@@H](C)[C@H]1CC[C@@]2(C)C3[C@@H](O)C=C4C(CC[C@H](O)C4(C)C)[C@]3(C=O)CC[C@]12C,IIIB,,C8166,11.2 µg/mL
Cc1cn([C@H]2C[C@H](F)[C@@H](COCP(=O)(O)O)O2)c(=O)[nH]c1=O,,,MT-4,~1 µM
Nc1nc(NC2CC2)c2ncn(C3CC=C[C@H]3CO)c2n1,HE,,CEM,>100 µM
CC(C)c1cc(=O)oc2c3c(c4c(c12)OC(C)(C)C=C4)C[C@H](C)[C@@H](C)[C@@H]3O,RF,,CEM + CEM-SS,0.18 µM
O=C1N(Cc2cccc(/C(=N\O)C(F)(F)F)c2)[C@H](Cc2ccccc2)[C@H](O)[C@@H](O)[C@@H](Cc2ccccc2)N1Cc1cccc(/C(=N\O)C(F)(F)F)c1,RF,,MT-2,<0.714 µM
CC(C)=CC(=O)C[C@@H](C)[C@H]1CC[C@@]2(C)C3C(=O)C=C4C(CCC(=O)C4(C)C)[C@]3(C=O)CC[C@]12C,IIIB,,C8166,10.1 µg/mL
Cc1cn(C2CC(N=[N+]=[N-])C(CO)O2)c(=O)n(/C=C/S(=O)(=O)c2ccccc2)c1=O,NL4-3,,,0.007 µM
Nc1nc2c(ncn2C2C=C[C@@H](CO)C2)c(=O)[nH]1,HE,,CEM,3.5 µM
Cc1cn([C@H]2CC[C@H](O)[C@H]2CO)c(=O)[nH]c1=O,,,CEM + CEM/0,10 µM
O=C1N(Cc2cccc(-c3cn[nH]n3)c2)[C@H](Cc2ccccc2)[C@H](O)[C@@H](O)[C@@H](Cc2ccccc2)N1Cc1cccc(-c2cn[nH]n2)c1,RF,,MT-2,<0.094 µM
O=c1[nH]cnc2c1ncn2[C@H]1CC[C@@H](CO)O1,NL4-3:IN7-3),,MT-2,0.5 µM
CC(C)=CC(=O)C[C@@H](C)[C@H]1CC[C@@]2(C)C3C(=O)[C@@H]4O[C@]45C(CCC(=O)C5(C)C)[C@]3(C=O)CC[C@]12C,IIIB,,C8166,40.5 µg/mL
Cc1ccnc2c1NC(=O)c1cccnc1N2C1CC1,,RT-K70R L100I,MT-4,<1.5 µM
c1cc(CN2CCCNCCNCCCNCC2)ccc1CN1CCCNCCNCCCNCC1,NL4-3 D-CA-resistant,,MT-4,0.02 µM
O=[N+]([O-])c1ccccc1S(=O)(=O)c1ccccc1,BaL,,PBMC (monocytes/macrophages) + PBMC,2.78 µM
Cc1cn([C@@H]2C[C@H](CO)[C@@H](O)C2)c(=O)[nH]c1=O,,,CEM + CEM/0,0.5 µM
O=C1N(Cc2cccc(CO)c2)[C@H](Cc2ccccc2)[C@H](O)[C@@H](O)[C@@H](Cc2ccccc2)N1Cc1cccc(-c2ccn[nH]2)c1,RF,,MT-2,<0.234 µM
Cc1ncnc(C)c1C(=O)N1CCC(C)(N2CCN([C@@H](Cc3ccccc3)c3ccc(C(F)(F)F)cc3)[C@@H](C)C2)CC1,JV1083 Clinical isolates,,PBMC,<0.00027 µM
Cc1cc(S(N)(=O)=O)ccc1NC(=O)COc1ccc(Cl)cc1C(O)c1cccc(C)c1C,,,C8166,227.5 µM
Nc1ccn([C@H]2CC[C@@H](CO)O2)c(=O)n1,NL4-3:IN7-3),,MT-2,0.08 µM
O=C1N(Cc2cccc(-c3cnc[nH]3)c2)[C@H](Cc2ccccc2)[C@H](O)[C@@H](O)[C@@H](Cc2ccccc2)N1Cc1cccc(-c2cnc[nH]2)c1,RF,,MT-2,<0.084 µM
CC[C@H](C)[C@H](NC(=O)C(=O)OC[C@H]1O[C@@H](n2cc(C)c(=O)[nH]c2=O)C[C@@H]1N=[N+]=[N-])C(=O)O,,,PBMC,0.035 µg/mL
CC(C)c1cc(=O)oc2c3c(c4c(c12)OC(C)(C)C=C4)OC(C)C(C)C3=O,IIIB,,CEM + CEM-SS,0.51 µM
Cc1cc(C)c(S(=O)(=O)/C=C/n2c(=O)c(C)cn(C3CC(N=[N+]=[N-])C(CO)O3)c2=O)c(C)c1,NL4-3,,,0.014 µM
CC(C)c1cc(=O)oc2c3c(c4c(c12)OC(C)(C)C=C4)C[C@@H](C)[C@H](C)[C@@H]3O,IIIB,,CEM + CEM-SS,0.2 µM
Nc1nc(NC2CC2)c2ncn(C3C=C[C@@H](CO)C3)c2n1,HE,,CEM,5.9 µM
CC[C@@H](c1ccc(C(F)(F)F)cc1)N1CCN(C2(C)CCN(C(=O)c3c(C)ncnc3C)CC2)C[C@@H]1C,ADA-M Clinical isolates,,PBMC,<0.021 µM
[N-]=[N+]=N[C@H]1[C@@H](O)[C@H](n2cnc3c(=O)[nH]c(N)nc32)O[C@@H]1CO,,,PBMC,9.03 µM
CC(C)c1cc(=O)oc2c3c(c4c(c12)OC(C)(C)C=C4)O[C@@H](C)[C@H](C)C3=O,SKI,,CEM + CEM-SS,0.9 µM

For reference, 6 entries again:

structure	strain	changes	cells	value
[N-]=[N+]=N[C@H]1[C@@H](O)[C@H](n2ccc(N)nc2=O)O[C@@H]1CO			PBMC	91 µM
Nc1nc2c(ncn2C2C=C[C@@H](CO)C2)c(=O)[nH]1	HE		CEM	3.5 µM
[N-]=[N+]=N[C@H]1[C@@H](O)[C@H](n2cnc3c(=O)[nH]c(N)nc32)O[C@@H]1CO			PBMC	9.03 µM
Cc1cn([C@H]2C=C[C@@H](CO)O2)c(=O)[nH]c1=O			CEM + CEM-SS	0.04 µM
Cc1cn(C2CC(N=[N+]=[N-])C(CO)O2)c(=O)n(/C=C/C(=O)/C=C(\O)c2nnnn2Cc2ccc(F)cc2)c1=O	NL4-3			0.24 µM
CC[C@@H](c1ccc(C(F)(F)F)cc1)N1CCN(C2(C)CCN(C(=O)c3c(C)ncnc3C)CC2)C[C@@H]1C	ADA-M Clinical isolates		PBMC	<0.021 µM